# Measurements taken from patent publication US9611303B2, “Modified biotin-binding protein” (Japan Tobacco Inc., priority 2009, dated 2017).
# B1: TM2 W108R: TM2 in which the 108th tryptophan was replaced with arginine (protein)
# chain: MSDVQSSLTGTWYNELNSKMELTANKDGTLTGKYLSKVGDVYVPYPLSGRYNLQPPAGQGVALGWAVSWENSKIHSATTWSGQFFSESSPVILTQWLLSSSTARGDVRESTLVGNDSFTKTAPTEQQIAHAQLHCRAPRLK
# B2: TM2 S18A: TM2 in which the 18th serine was replaced with alanine (protein)
# chain: MSDVQSSLTGTWYNELNAKMELTANKDGTLTGKYLSKVGDVYVPYPLSGRYNLQPPAGQGVALGWAVSWENSKIHSATTWSGQFFSESSPVILTQWLLSSSTARGDVWESTLVGNDSFTKTAPTEQQIAHAQLHCRAPRLK
# B3: TM2 Y34A: TM2 in which the 34th tyrosine was replaced with alanine (protein)
# chain: MSDVQSSLTGTWYNELNSKMELTANKDGTLTGKALSKVGDVYVPYPLSGRYNLQPPAGQGVALGWAVSWENSKIHSATTWSGQFFSESSPVILTQWLLSSSTARGDVWESTLVGNDSFTKTAPTEQQIAHAQLHCRAPRLK
# Assay: Expression of LATM2 in soluble fraction of E. coli
# Settings: Western blotting
row,Molecule,expression in E. coli soluble fraction
1,B1,hardly observed
2,B2,hardly observed
3,B3,hardly observed
